Anti-infective test results gathered from many reports (values: NIAID ChemDB through PubChem).

Common to all: whole-cell or culture tests; agent: HIV-1; method: p24; endpoint: inhibition

Percent inhibition refers to the dose given; in toxicity tests it is the harm to the cells. An empty or dashed field is not shown. Lines come from different laboratories, so protocols vary.

SMILES | changes | dose | setting | strain | cell line | result
CCN(C(=O)OCc1ccccc1)C1CCN(CCC(CN(C)S(=O)(=O)c2ccccc2)c2ccccc2)CC1 |  | 12.5 µM |  | YU-2 (M-tropic) | PBMC | 95%
O=S(=O)(O)c1cc(N=C=S)ccc1CCc1ccc(N=C=S)cc1S(=O)(=O)O |  | 100 µg/mL |  | RF | C8166 | 97.5%
CC(C)(O)c1cccc(CN2C(=O)N(Cc3cccc(C(C)(C)O)c3)[C@H](Cc3ccccc3)[C@H](O)[C@@H](O)[C@H]2Cc2ccccc2)c1 |  | 0.0222 µM |  | HXB2 | MT-2/MT-4 + MT-2 | 90%
C/C(=C(/CCOC(=O)C(C)C)SS/C(CCOC(=O)C(C)C)=C(\C)N(C=O)Cc1cnc(C)nc1N)N(C=O)Cc1cnc(C)nc1N |  | 50 µM |  | IIIB | MOLT-4/HIV-1(IIIB) + MOLT-4 | 0%
CC(C)=CCOc1cc(NC(=S)c2ccoc2C)ccc1Cl |  | 0.01219 µg/mL |  | 92US657 Clinical isolate | PBMC | 90%
CC(C)[C@H](NC(=O)c1ccc2ccccc2n1)C(=O)N[C@@H](Cc1ccccc1)[C@H](O)CN1CC[C@@H](OCc2ccncc2)C[C@H]1C(=O)NC(C)(C)C |  | 0.026 µM |  | Nevirapine-resistant | PBMC | 90%
OCCN1CCN(CC/C=C2/c3ccccc3Sc3ccc(C(F)(F)F)cc32)CC1 |  | 2 µg/mL |  | IIIB | MOLT-3 | 43%
COc1cc(-c2c3nc(c(-c4cc(OC)c(OC)c(OC)c4)c4ccc([n-]4)c(-c4cc(OC)c(OC)c(OC)c4)c4ccc([n-]4)c(-c4cc(OC)c(OC)c(OC)c4)c4nc2C=C4)C=C3)cc(OC)c1OC.[O]=[V+2] |  | 5 µM | 7 d | BaL | HUT/CCR5 + HUT | 73%
CC(C)(C)NC(=O)[C@@H]1C[C@@H]2CCCC[C@@H]2CN1C[C@@H](O)[C@H](Cc1ccccc1)NC(=O)[C@H](CC(N)=O)NC(=O)c1ccc2ccccc2n1 |  | 0.016 µM |  | BaL | Macrophage + Monocytes/macrophages | 30%
CCc1cc(NCc2nc3c(Cl)ccc(Cl)c3o2)c(=O)[nH]c1C | RT-M41L | 0.1 µM |  | Clinical isolate (RT M41L) | PBMC | 90%
CN1CC[C@@H](c2ccccc2)[C@H](COc2ccc3c(c2)OCCO3)C1 |  | 0.8 µg/mL |  | IIIB | MOLT-3 | 7%
O=Nc1c(-c2c(O)[nH]c3ccccc23)[nH]c2ccccc12 |  | 0.5 µM |  | IIIB | PM1 | 55%
CC[C@H](C)C(=O)O[C@H]1C[C@@H](C)C=C2C=C[C@H](C)[C@H](CC[C@@H]3C[C@@H](O)CC(=O)O3)[C@H]21 |  | 50 µM |  | 92US151 R5X4 clinical variant | PBMC | 58.6%
Oc1ccc(/C=C/c2cc(O)cc(O)c2)cc1 |  | 10 µM | clinical isolate | EJC-R2 | PBMC | 10%
CC(C)(C)NC(=O)[C@@H]1CCCN1C(=O)[C@@H](O)[C@H](Cc1ccccc1)NC(=O)[C@H](CC(N)=O)NC(=O)c1cnc2ccccc2n1 |  | 0.5 µM |  | IIIB | CEM | 61%
Cc1cn([C@H]2C[C@H](N=[N+]=[N-])[C@@H](CO)O2)c(=O)[nH]c1=O |  | 0.1 µM |  |  | U1 | 30.6%
O=C1OC(C2OC(=O)c3cc(O)c(O)c(O)c3-c3c(O)c(O)c4oc(=O)c5c(c(O)c(O)c6oc(=O)c3c4c65)-c3c(cc(O)c(O)c3O)C(=O)OCC2O)C2OC(=O)c3c(c(O)c(O)c(O)c3C2O)-c2c1cc(O)c(O)c2O |  | 0.2 µg/mL |  | IIIB | H9 | 0%
CCC[C@@]1(CCc2ccccc2)CC(O)=C([C@H](CC)c2cccc(NS(=O)(=O)c3ccc(C(F)(F)F)cn3)c2)C(=O)O1 |  | 0.8 µM |  | Isolate UJ00004 | PBMC | 90%
O=C(OC[C@H]1O[C@@H](OC(=O)c2cc(O)c(O)c(O)c2)[C@H](O)[C@@H](OC(=O)c2cc(O)c(O)c(O)c2)[C@@H]1O)c1cc(O)c(O)c(O)c1 |  | 33 µg/mL |  | IIIB | MOLT-3 | 79%
CCN(CC)CCNS(=O)(=O)c1ccc(-c2c3nc(c(-c4ccc(S(=O)(=O)NCCN(CC)CC)cc4)c4ccc([nH]4)c(-c4ccc(S(=O)(=O)NCCN(CC)CC)cc4)c4nc(c(-c5ccc(S(=O)(=O)NCCN(CC)CC)cc5)c5ccc2[nH]5)C=C4)C=C3)cc1 |  | 5 µM | 7 d | BaL | HUT/CCR5 + HUT | 33%
COc1ccc(CN[C@@H](C(=O)N[C@H]2c3ccccc3C[C@H]2O)[C@H](O)[C@H](Cc2ccccc2)NC(=O)[C@@H](NC(=O)OCc2ccccc2)C(C)(C)C)cc1 |  | 0.31 µM |  | K31 | Primary T4 cells + T4 | 90%
COc1ccc(OC[C@H]2CNCC[C@@H]2c2ccccc2)cc1 |  | 4 µg/mL |  | IIIB | MOLT-3 | 0%
O=C1N(Cc2ccc(CO)cc2)[C@H](Cc2ccccc2)[C@H](O)[C@@H](O)[C@@H](Cc2ccccc2)N1Cc1ccc(CO)cc1 |  | 0.18 µM |  | H clinical isolate | PBMC | 90%
COc1ccc(CN[C@@H](C(=O)N[C@H](C(=O)NCc2nc3ccccc3[nH]2)C(C)C)[C@H](O)[C@H](Cc2ccccc2)NC(=O)[C@@H](NC(=O)OCc2ccccc2)C(C)(C)C)cc1 |  | 0.021 µM |  | BaL | Monocytes + Monocyte | 90%
COC(=O)[C@@H]1C2CCC(C[C@@H]1OC(=O)c1ccccc1)N2C |  | 50 µg/mL |  | IIIB | ACH-2 + ACH2 | <0%
CC(C)[C@H](NC(=O)c1ccccn1)C(=O)N[C@@H](Cc1ccccc1)[C@H](O)[C@H](O)[C@H](Cc1ccccc1)NC(=O)[C@@H](NC(=O)c1ccccn1)C(C)C | PR-G48V | 30 µM |  | NL4-3 | MT-4 | 90%
Cc1c(CBr)n2c(C[N+](C)(C)C)c(C)c(=O)n2c1=O.[Br-] |  | 1000 µM |  | IIIB | H9 | 88%
NCC(=O)N1CCC[C@H]1C(=O)NCC(=O)N[C@H](C=O)CCCN=C(N)N |  | 25 µg/mL |  | ELI | HUT | 0%
CC(=O)N1CCC(C(=O)N(CCCN2CCC(Cc3ccc(C(N)=O)cc3)CC2)c2ccc(C)c(Cl)c2)CC1 |  | 0.015 µM |  | HTN R5 clinical isolate | PBMC | 90%
NC(N)=NCCC[C@@H](C=O)NC(=O)CNC(=O)[C@@H]1CCCN1 |  | 25 µg/mL |  | ELI | HUT | 0%
COc1cc(C[C@H](C)[C@H](C)Cc2ccc(O)c(O)c2)ccc1O |  | 25 µg/mL |  | VS | PBMC | 95%
NCC(=O)N1CCC[C@H]1C(=O)NCC=O |  | 25 µg/mL |  | IIIB | H9 | 44.2%
c1cc(CN2CCCNCCNCCCNCC2)ccc1CN1CCCNCCNCCCNCC1 |  | 0.1 µM |  | 92RW026 CLADE A R5 | PBMC | 23%
NC(N)=NCCC[C@H](N)C(=O)NCC(=O)N1CCC[C@H]1C(=O)NCC=O |  | 250 µg/mL |  | IIIB | H9 | 96.4%
CCOC(=O)[C@H](CS)NC(=O)CC[C@H](N)C(=O)O |  | 1600 µM |  | NL4-3 | H9 | 100%
NC(=O)NO |  | 1000 µM |  | NL4-3 | PBMC | 70%
CN1CC[C@H](c2ccccc2)[C@@H](COc2ccc3c(c2)OCCO3)C1 |  | 4 µg/mL |  | IIIB | MOLT-3 | 7%
NC(N)=NCCC[C@H](NC(=O)[C@@H](N)Cc1ccc(O)cc1)C(=O)NCC(=O)N1CCC[C@H]1C(=O)NCC=O |  | 250 µg/mL |  | IIIB | H9 | 97.9%

A second listing of 4 rows from above:

SMILES | changes | dose | setting | strain | cell line | result
NC(N)=NCCC[C@H](N)C(=O)NCC(=O)N1CCC[C@H]1C(=O)NCC=O |  | 250 µg/mL |  | IIIB | H9 | 96.4%
COc1ccc(CN[C@@H](C(=O)N[C@H]2c3ccccc3C[C@H]2O)[C@H](O)[C@H](Cc2ccccc2)NC(=O)[C@@H](NC(=O)OCc2ccccc2)C(C)(C)C)cc1 |  | 0.31 µM |  | K31 | Primary T4 cells + T4 | 90%
CCN(C(=O)OCc1ccccc1)C1CCN(CCC(CN(C)S(=O)(=O)c2ccccc2)c2ccccc2)CC1 |  | 12.5 µM |  | YU-2 (M-tropic) | PBMC | 95%
O=Nc1c(-c2c(O)[nH]c3ccccc23)[nH]c2ccccc12 |  | 0.5 µM |  | IIIB | PM1 | 55%